Values of other authors in patent US20030195350A1, “Individualization of therapy with antiviral agents” (priority 2001, published 2003).

Conditions: in vivo; cited from earlier work

SMILES: CC(C)c1nc(CN(C)C(=O)N[C@H](C(=O)N[C@@H](Cc2ccccc2)C[C@H](O)[C@H](Cc2ccccc2)NC(=O)OCc2cncs2)C(C)C)cs1 (relative stereo) [ritonavir, 10-Hydroxy-2-methyl-5-(1-methylethyl)-1-[2-(1-methylethyl)-4-thiazolyl]-3,6-dioxo-8,11-bis(phenylmethyl)-2,4,7,12-tetraazatridecan-13-oic acid, 5-thiazolylmethyl ester, [5S-(5R*,8R*,10R*,11R*)]]
- Adverse event: Diarrhea: 23.3%
